A mixed list of measured activities; the numbers were collected in NIAID ChemDB.

Shared fields: growth or infection tests; species: Candida albicans

Two numbers with a dash give a range or band. An empty or dashed field is not shown. Rows are shuffled and stem from different studies. MIC50, MIC90 and the like: level of inhibition, or share of isolates inhibited.

structure	method	endpoint	strain or isolate	result
O=C1N=c2ccccc2=C1c1sc(Nc2nnc(-c3ccc(Cl)cc3)o2)nc1O	-	MIC	ATCC 10231	16 µg/mL
Clc1ccc(COC(Cn2ccnc2)c2cc3ccccc3o2)c(Cl)c1	-	MIC90	-	62 µg/mL
CC(C)c1ccc(NC(=O)CC2C(=O)OC(C)(C)CN2Cc2ccccc2)cc1	broth dilution	MIC	SC5314	>25 µg/mL
O=C1N=c2ccc(F)cc2=C1c1sc(Nc2nnc(-c3ccc(Cl)cc3)o2)nc1O	-	MIC	ATCC 10231	16 µg/mL
O=c1[nH]n(-c2ccccc2)c(=O)c2cc3c(cc12)[nH]c1ccc(N2CCNCC2)cc13	agar	MIC100	Clinical isolates	512 µg/mL
CCCCCC[C@H]1OC(=O)CNC(=O)[C@@H]([C@H](C)O)NC(=O)[C@@H](CO)NC(=O)[C@H]([C@@H](C)CC)NC(=O)[C@H](CC(C)C)N(C)C(=O)[C@@H]1C	-	MIC	-	>100 µg/mL
O[C@](Cn1cncn1)(Cn1cnc(/C=C/c2ccc(OCC(F)(F)C(F)F)cc2)n1)c1ccc(F)cc1F	-	MIC	Isolate O15-2	1 µg/mL
Clc1ccc(C(Cn2cncn2)OCc2cc3ccccc3o2)c(Cl)c1	-	MIC90	-	>100 µg/mL
CCCCCC[C@H]1OC(=O)CNC(=O)[C@@H]([C@H](C)O)NC(=O)[C@@H](CO)NC(=O)[C@H]([C@H](C)CC)NC(=O)[C@H](CC(C)C)N(C)C(=O)[C@@H]1C	-	MIC	-	>100 µg/mL
CCN1CCOCC1CC(=O)Nc1ccc(C(C)C)cc1	broth dilution	MIC	SC5314	>50 µg/mL
Cc1c(O)cccc1C(=O)N[C@@H](CSc1ccccc1)[C@H](O)CN1C[C@H]2CCCC[C@H]2C[C@H]1C(=O)NC(C)(C)C	-	MIC	I41A	64 µg/mL
CCN1CC(C)(C)OC(=O)C1CC(=O)Nc1ccncc1	broth dilution	MIC	SC5314	>50 µg/mL
Clc1ccc(COC(Cn2cncn2)c2ccc3ccccc3c2)c(Cl)c1	-	MIC90	-	>100 µg/mL
CCCCCC[C@H]1OC(=O)CNC(=O)[C@@H]([C@@H](C)O)NC(=O)[C@@H](CO)NC(=O)[C@H]([C@@H](C)CC)NC(=O)[C@H](CC(C)C)N(C)C(=O)[C@@H]1C	-	MIC	-	>100 µg/mL
CCN1CC(C)(C)OC(=O)C1CC(=O)NCCc1ccccc1	broth dilution	MIC	SC5314	>25 µg/mL
Clc1ccc(C(Cn2cncn2)OCc2cccc3ccccc23)c(Cl)c1	-	MIC90	-	>100 µg/mL
CCCNC(=O)CC1C(=O)OC(C)(C)CN1CC	broth dilution	MIC	SC5314	>25 µg/mL
O=C1N=c2ccc([N+](=O)[O-])cc2=C1c1sc(Nc2nnc(-c3ccccc3)o2)nc1O	-	MIC	ATCC 10231	16 µg/mL
CCN1CC(C)(C)OC(=O)C1CC(=O)N1CCOCC1	broth dilution	MIC	SC5314	>50 µg/mL
CCCCCCCCOc1ccc(C(=O)NC2C[C@@H](O)[C@@H](O)NC(=O)C3[C@@H](O)[C@@H](C)CN3C(=O)C(C(C)O)NC(=O)C([C@H](O)[C@@H](O)c3ccc(O)cc3)NC(=O)C3C[C@@H](O)CN3C(=O)C(C(C)O)NC2=O)cc1	-	MFC	126 strains	0.31 µg/mL
CC(N1CCN(c2ccc(-n3cnnn3)cc2)C1=O)[C@@](O)(Cn1cncn1)c1ccc(F)cc1F	-	MIC	IFO 0583	>16 µg/mL
Clc1ccc(C(Cn2ccnc2)OCc2cc3ccccc3o2)c(Cl)c1	-	MIC90	-	26.8 µg/mL
O=C(O)c1cc2[nH]c3cc4c(=O)[nH]n(-c5ccccc5)c(=O)c4cc3c2cc1C(=O)O	agar	MIC100	Clinical isolates	512 µg/mL
C[C@@H](N1CCN(c2ccc(-n3cnnn3)cc2)C1=O)[C@](O)(Cn1cncn1)c1ccc(F)cc1F	-	MIC	CA383	>16 µg/mL
Clc1ccc(COC(Cn2cncn2)c2ccc(Cl)cc2Cl)c(Cl)c1	-	MIC90	-	56 µg/mL
O=C1N=c2ccc([N+](=O)[O-])cc2=C1c1sc(Nc2nnc(-c3ccc(Cl)cc3)o2)nc1O	-	MIC	ATCC 10231	16 µg/mL
O=c1[nH]n(-c2ccccc2)c(=O)c2cc3c(cc12)[nH]c1ccccc13	agar	MIC50	Clinical isolates	16–32 µg/mL
Clc1ccc(C(Cn2ccnc2)OCc2cccc3ccccc23)c(Cl)c1	-	MIC90	-	23.8 µg/mL
O=C1N=c2ccc(Br)cc2=C1c1sc(Nc2nnc(-c3ccccc3)o2)nc1O	-	MIC	ATCC 10231	16 µg/mL
CC(C)c1ccc(NC(=O)CC2NCC(C)(C)OC2=O)cc1	broth dilution	MIC	SC5314	>25 µg/mL
O=c1[nH]n(-c2ccccc2)c(=O)c2cc3c(cc12)[nH]c1cc2c(=O)[nH]n(-c4ccccc4)c(=O)c2cc13	agar	MIC50	Clinical isolates	16 µg/mL
CCN1CC(C)(C)OC(=O)C1CC(=O)NCc1cccs1	broth dilution	MIC	SC5314	>25 µg/mL
CC(=O)N1CCN(c2ccc(OC[C@H]3CO[C@](Cn4ccnc4)(c4ccc(Cl)cc4Cl)O3)cc2)CC1	-	MIC50	126 strains	0.25 µg/mL

Repeating the first 4 entries:

structure,method,endpoint,strain or isolate,result
O=C1N=c2ccccc2=C1c1sc(Nc2nnc(-c3ccc(Cl)cc3)o2)nc1O,-,MIC,ATCC 10231,16 µg/mL
Clc1ccc(COC(Cn2ccnc2)c2cc3ccccc3o2)c(Cl)c1,-,MIC90,-,62 µg/mL
CC(C)c1ccc(NC(=O)CC2C(=O)OC(C)(C)CN2Cc2ccccc2)cc1,broth dilution,MIC,SC5314,>25 µg/mL
O=C1N=c2ccc(F)cc2=C1c1sc(Nc2nnc(-c3ccc(Cl)cc3)o2)nc1O,-,MIC,ATCC 10231,16 µg/mL